Source: the supplement of paper PMC12637763
Residue numbers refer to the chain shown, from its start. The list shows a part of the results. Env chains of viruses from a treatment-interruption trial, translated from the printed DNA. IC50 / IC80 of two broadly neutralizing antibodies; lower = more sensitive virus; >50 µg/ml means not reached and <0.001 µg/ml is below the lowest dose. No active / inactive call.

B1: HIV-1 Env, rebound clone, placebo arm (protein)
chain: MRAKGTRKNCQHLWKWGTMLLGMLMICSAAGNLWVTVYYGVPVWKAANTTLFCASDAKAYDTEVHNVWATHACVPTDPNPQEVPLENVTENFNMWKNNMAEQMHEDIISLWDQSLKPCVKLTPLCVTLNCTDYTKNATNQNNTSGNETVGKEIEMKNCSFNITTDMRDKFQKEYALFYKDDIVSIDNNVSYRLISCNTSVLTQACPKISFEPIPIHYCAPAGFAILKCNDKKFNGTGPCKNVSTVQCTHGIRPVVSTQLLLNGSLAEGDIVIRSENITNNAKTIIVQLNETVEINCTRPNNNTRKSIHIGPGRAFYATGDIIGDIRQAHCNISGTKWNNTLKKIVGQLRAQFGTQFKNKTITFNHSSGGDPEIVMHMFNCGGEFFYCNTTQLFNSTWPANGSIAENSTNNGTITLPCRIKQIVNMWQEVGKAMYAPPIKGQIKCTSNITGLILTRDGGTETNTTTEIFRPGGGNMMDNWRSELYKYKVVKIEPLGVAPTKAKRRVVQREKRAVTFGALFLGFLGAAGSTMGAASMTLTVQARLLLSGIVQQQNNLLRAIEAQQHMLQLTVWGIKQLQARVLAVERYLKDQQLLGIWGCSGKLICTTAVPWNASWSNKTQDEIWGNMTWMQWEKEISNYTGLIYNLIEKSQTQQEQNEQELLALDQWASLWNWFDISKWLWYIKIFIMIVGGLIGLRIVFTVLNIVNRVRQGYSPLSFQTLLPNPRGPDRPGGIEEEGGERDRDSSSRLADGFLAIFWVDLRSLFLFSYHHLRDLLLIAARIVELLGRRGWELLKYWWNLLRYWSQELKNSAISLLNATAIAVAEGTDRVIEVLQRIWRGILHIPTRIRQGLERLLL
B2: HIV-1 Env, rebound clone, placebo arm (protein)
chain: B1 chain with D269G, I403M, D773N
B3: HIV-1 Env, rebound clone, placebo arm (protein)
chain: MRAKGTKKSWQNLWWRWGTMLLGMLMICNAVEQLWVTVYYGVPVWKEANTTLFCASDAKAYDTEVHNVWATHACVPTDPNPQEVFLENVTENFNMWKNNMVEQMHEDIISLWDQSLKPCVKLTPLCVTLNCTDLNCTSISNSSSTSNSSAKCNISNSEGEEEIKNIKNCTFNVTTSIKDKIQKEYALFYRLDIVPIDGSNDSYRLISCNTSVITQACPKVNFEPIPIHYCTPAGFAILKCNDKKFNGTGPCKNVSTVQCTHGIRPVVSTQLLLNGSLAEEEVVIRSENFTDNAKTIIVQLNESVEINCTRPSNNTRKSITIGPGRAFYATGEIIGDIRQAHCNISKAKWGNSLELVVSKLREHENKTIIFKQSSGGDPEIVMHSFICGGEFFYCNTTQLFNSTWTLNDTNFENSTNGNETITLPCRIKQIINMWQEVGKAMYAPPIRGQIRCSSNITGLLLARDGGSNNTNNETFRPEGGNMRDNWRSELYKYKVVRIEPLGVAPTRARRRVVQREKRAVGAIGAMFLGFLGAAGSTMGAASITLTVQARLLLSGIVQQQNNLLRAIEAQQHLLQLTVWGIKQLQARVLAVERYLKDQQLLGIWGCSGRLICTTNVPWNNSWSNKNYSQIWDNMTWMEWEREIDNYTGLIYTLIEQSQNQQEKNEQELLELDKWASLWNWFSITNWLWYIRIFIMIVGGLIGLRIVFAIFSLVNRVRQGYSPLSFQTRLPTQRGPDRPEETEEEGGEQGKDRSIRLVDGFLALIWDDLRSLCLFSYHRLRDLLLIAARTVEILGRGGWELLKYWKNLLQYWSQELKKSAIDLYNTIAIAVAEGTDRVIEAIQRICRAILHIPRRIRQGLERGLL
B4: HIV-1 Env, rebound clone, placebo arm (protein)
chain: B3 chain with G350R, E354K
B5: HIV-1 Env, rebound clone, placebo arm (protein)
chain: B3 chain with G350R, E354K, T422A
B6: HIV-1 Env, rebound clone, antibody arm (protein)
chain: MRVKGIRRNYQHLWKWGIMLLGMLMICSAVDNLWVTVYYGVPVWKEATTTLFCASDAKSYDTEAHNVWATHACVPTDPNPQEVKLENVTENFNMWKNNMVEQMHEDIISLWDQSLKPCVRLTPLCVTLNCNDVNSTRTVNTTMNSTTMSSEVDKGEIKNCSFNITTGMGIKNEKEYALFYKLDVVQIDNTSYRLISCNTSVVTQACPKISFEPIPIHYCAPAGFAILKCNDKKFNGTGPCKNVSTVQCTHGIRPVISTQLLLNGSLAEEEVIIRSENITDNAKTIIVQLNETVKINCTRPHNNTRKGIHMGPGKAFFTTGNVIGDIRQAHCNISGAEWKNTLKMVAKKLGDQFKNKTITFSASSGGDPEIEKHTFNCGGEFFYCDTTKLFNSTWNETTWNENRENENDTDITIQCRIKQIINMWQEVGKAIYAPPIEGHIRCSSNITGLLLTRDGGINNNQSNTTEVFRPQGGDMKNNWRSELYKYKVVKIEPLGVAPTKAKRRVVQREKRAIVGLGAVFVGFLGAAGSTMGAASLTLTVQARQLLSGIVQQQSNLLRAIEAQQHLLQLTVWGIKQLQARILAVERYLTDQQLLGIWGCSGKLICNTAVPWNASWSNKSLDTIWENMTWMEWDREISNYTSLIYSLIEESQNQQEKNEQELLALDKWANLWSWFNISNWLWYIRIFIMIVGGLIGLRIVFAVLSIVNRVRQGYSPLSFQTHLPAQRGPDRPAGIGEEGGERDKDTSTPLVAGFLAILWVDLRSLCLFSYHRLRDLLLIVARIVELLGRRGWEILKYWWTLLQYWSQELKTSAVSLLNTTAIAVAEGTDRVIEAVQRACRAILHIPRRIRQGAERILV

biological target: antibody 10-1074; assay: neutralization IC50; higher = virus less sensitive to the antibody
Experimental: (§1)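 Pseudovirus bearing the Env chain mixed with antibody, from 50 µg/ml in fivefold dilutions, on TZM-bl reporter cells, in duplicate.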

Binder	neutralization IC50 [µg/mL]
B1	0.011
B2	0.015
B3	0.059
B4	0.066
B5	0.043
B6	0.434

biological target: antibody 3BNC117; assay: as above
Experimental: as §1

Binder	neutralization IC50 [µg/mL]
B1	0.017
B2	0.022
B3	0.181
B4	0.233
B5	0.131
B6	1.03

biological target: antibody 10-1074; assay: neutralization IC80; higher = virus less sensitive to the antibody
Experimental: as §1

Binder	neutralization IC80 [µg/mL]
B1	0.032
B2	0.047
B3	0.347
B4	0.264
B5	0.234
B6	0.822

biological target: antibody 3BNC117; assay: as above
Experimental: as §1

Binder	neutralization IC80 [µg/mL]
B1	0.046
B2	0.067
B3	1.08
B4	1.39
B5	1.74
B6	0.154
